Literature values in patent publication US4868155A, “Dipeptidyl 4-0-,6-0-acyl-2-amino-2-deoxy-D-glucose compositions and methods of use in AIDS-immunocompromised human hosts” (Merck & Co., Inc., priority 1987, dated 1989).

Conditions: patients

NC(=O)c1ncn([C@@H]2O[C@H](CO)[C@@H](O)[C@H]2O)n1 [Ribavirin, 1 8 D ribofuranosyl-1,2,4-triazole-3-carboxamide]
toxicity / side effects: well tolerated
